{
  "source": "PubChem BioAssay AID504423",
  "about": "(Broad Institute, 2011)",
  "note": "The entries are a selection whose mix differs from that of the whole data set. Activity calls are given as the source filed them.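 The calls were made as follows: active = highest replicate inhibition at or above 60% at 9 µM, even if other replicates fall short; inactive = all replicates below 60% inhibition.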",
  "data": [
    {"system": "Kaposi's sarcoma herpesvirus LANA C-terminal domain (residues 932-1162) DNA binding", "test": "blockers of LANA C-terminal domain DNA interaction – biochemical, fluorescence polarization, FAM-LBS DNA, MBP-C-LANA, single point, primary screen (AID 504423);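 also: 0% = neutral control wells and 100% = 4 µM acridine orange control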", "details": "at 9 µM, stronger effect = higher value", "values": [
      {"molecule": "O=P1(N(CCCl)CCCl)OCCCS1", "note": "(stereo not drawn)", "inhibition": "inactive: -1.08%"},
      {"molecule": "O=C(Nc1cc([As](=O)(O)O)ccc1O)c1ccccc1", "inhibition": "inactive: 10.1%"},
      {"molecule": "O=[N+]([O-])c1ncn(CCn2ncnc2[N+](=O)[O-])n1", "inhibition": "inactive: 0.6%"},
      {"molecule": "CC(C)(C)C(=O)NC(Sc1ccncn1)C(Cl)(Cl)Cl", "note": "(stereo not drawn)", "inhibition": "inactive: -0.796%"},
      {"molecule": "O=C(O)CNc1ccc([As](=O)(O)O)cc1", "inhibition": "inactive: 0.444%"},
      {"molecule": "COC(=O)C1(C)COP(=O)(Nc2ccccc2)OC1", "note": "(stereo not drawn)", "inhibition": "inactive: 0.55%"},
      {"molecule": "O=[N+]([O-])c1cccc(NC2=NCC(CBr)S2)c1", "note": "(stereo not drawn)", "inhibition": "inactive: -0.0402%"},
      {"molecule": "O=[N+]([O-])c1cc([N+](=O)[O-])c(CCNc2ccccc2)c([N+](=O)[O-])c1", "inhibition": "inactive: 0.0466%"},
      {"molecule": "CCc1nc2c(n1)c1c(non1O)c1c2no[n+]1[O-]", "inhibition": "inactive: -1.64%"},
      {"molecule": "Cc1ccc(NP(=O)(Oc2ccccc2)Oc2ccccc2)nc1", "inhibition": "inactive: -0.0135%"},
      {"molecule": "CC(=O)N1C2C3N(C(C)=O)C1C1N(C(C)=O)C(C(N1C(C)=O)N3C(C)=O)N2C(C)=O", "inhibition": "inactive: -2.08%"},
      {"molecule": "O=[N+]([O-])c1cccc2n[nH]nc12", "inhibition": "inactive: -1.18%"},
      {"molecule": "CCN(/C(=N/P(=O)(N1CCOCC1)N1CCOCC1)N1CCOCC1)c1ccc(OC)cc1", "inhibition": "inactive: 0.395%"},
      {"molecule": "C[N+]1=C2C=CC=CC=C2SC12C([N+](=O)[O-])=CC([N+](=O)[O-])=C[C-]2[N+](=O)[O-]", "note": "(stereo not drawn)", "inhibition": "inactive: -0.0145%"},
      {"molecule": "Nc1ccc([As](=O)(O)c2ccc(N)cc2)cc1", "inhibition": "inactive: -1.53%"},
      {"molecule": "CC1CCN(C(=O)Oc2c(Cl)cc(Cl)c3cccnc23)CC1", "inhibition": "inactive: 0.35%"},
      {"molecule": "CN(C)C(=O)OCCc1n(C)cc[n+]1C", "inhibition": "inactive: -0.403%"},
      {"molecule": "CC(C)=N/N=C(\\N)N[N+](=O)[O-]", "inhibition": "inactive: 0.248%"},
      {"molecule": "Cc1ccc(N/C(=N/P(=O)(N2CCOCC2)N2CCOCC2)N2CCOCC2)cc1", "inhibition": "inactive: -0.855%"},
      {"molecule": "CN(C(=O)Cc1ccc(Cl)c(Cl)c1)[C@H]1CCCC[C@H]1N1CCCC1", "inhibition": "inactive: -1.57%"},
      {"molecule": "NC(=O)c1cc([N+](=O)[O-])cc([N+](=O)[O-])c1N", "inhibition": "inactive: 1.51%"},
      {"molecule": "CN1CCCC(OC(=O)C(c2ccccc2)c2ccccc2)C1", "note": "(stereo not drawn)", "inhibition": "inactive: -0.351%"},
      {"molecule": "Clc1ccc(Cl)c(NC2=NCC(CBr)S2)c1", "note": "(stereo not drawn)", "inhibition": "inactive: -2.74%"},
      {"molecule": "COc1ccccc1OP(=O)(Nc1ccc(C)cn1)Oc1ccccc1OC", "inhibition": "inactive: 1.37%"},
      {"molecule": "O=C(NC(Sc1ccncn1)C(Cl)(Cl)Cl)c1ccccc1", "note": "(stereo not drawn)", "inhibition": "inactive: 1.83%"},
      {"molecule": "Oc1ccccc1CNc1ccccn1", "inhibition": "inactive: 0.362%"},
      {"molecule": "Nc1cc(N)c2nonc2c1[N+](=O)[O-]", "inhibition": "inactive: 1.05%"},
      {"molecule": "CC(C)CC(=O)NC(Sc1ccc(Cl)cc1)C(Cl)(Cl)Cl", "note": "(stereo not drawn)", "inhibition": "inactive: 0.0812%"},
      {"molecule": "O=P(Nc1nc2ccc(Cl)cc2s1)(c1ccccc1)c1ccccc1", "inhibition": "inactive: 0.345%"},
      {"molecule": "CCCC1OP(N)(=O)OCC1CC", "note": "(stereo not drawn)", "inhibition": "inactive: -1.03%"},
      {"molecule": "CC(=O)Nc1ccc([As](=O)(O)O)cc1", "inhibition": "inactive: -2.59%"},
      {"molecule": "O=C(O)c1ccccc1[As](=O)(O)O", "inhibition": "inactive: -0.143%"},
      {"molecule": "CN(C(=O)Cc1ccc(Cl)c(Cl)c1)[C@H]1CCCC[C@@H]1N1CCCC1", "inhibition": "inactive: -0.759%"},
      {"molecule": "Cc1ccc(NP(=O)(Oc2ccccc2F)Oc2ccccc2F)nc1", "inhibition": "inactive: -0.41%"},
      {"molecule": "Cc1cc(SC(NC(=O)c2ccc(F)cc2)C(Cl)(Cl)Cl)ncn1", "note": "(stereo not drawn)", "inhibition": "inactive: 0.575%"},
      {"molecule": "CCOP(=O)(Nc1ccccc1)OCC", "inhibition": "inactive: -3.65%"},
      {"molecule": "Nc1cccc2ccc([As](=O)(O)O)cc12", "inhibition": "inactive: -0.498%"},
      {"molecule": "CCN(N=Nc1nonc1N)c1nonc1N", "inhibition": "inactive: 0.823%"},
      {"molecule": "Cc1ccc(NP(=O)(Oc2cccc(C)c2)Oc2cccc(C)c2)nc1", "inhibition": "inactive: -0.577%"},
      {"molecule": "c1ccc(-c2nn[nH]n2)c(-c2nn[nH]n2)c1", "inhibition": "inactive: -1.35%"},
      {"molecule": "O=C(NC1CCS(=O)(=O)C1)NP(=S)(Oc1ccccc1)Oc1ccccc1", "note": "(stereo not drawn)", "inhibition": "inactive: -0.185%"},
      {"molecule": "CCNC(=S)/N=C(\\N)N[N+](=O)[O-]", "inhibition": "inactive: 0.271%"},
      {"molecule": "O=P1(N(CCCl)CCCl)OCCC2CCCCN21", "note": "(stereo not drawn)", "inhibition": "inactive: 2.37%"},
      {"molecule": "CCC(=O)N1C2C3N(C(=O)CC)C1C1N(C(=O)CC)C(C(N1C(=O)CC)N3C(=O)CC)N2C(=O)CC", "inhibition": "inactive: 0.819%"},
      {"molecule": "O=C(OC1CN2CCC1CC2)c1ccccc1", "note": "(stereo not drawn)", "inhibition": "inactive: 6.38%"},
      {"molecule": "Cc1ccc(OP(=O)(Nc2ccccn2)Oc2ccc(C)cc2)cc1", "inhibition": "inactive: 1.37%"},
      {"molecule": "CC(=O)NC(SC(=S)N(CC(C)C)CC(C)C)C(Cl)(Cl)Cl", "note": "(stereo not drawn)", "inhibition": "inactive: 1.91%"},
      {"molecule": "COC(=O)c1cc2c(s1)N=C(c1ccccc1)N(C)P2(=O)N1CCOCC1", "note": "(stereo not drawn)", "inhibition": "inactive: -0.379%"},
      {"molecule": "O=c1c2cc([N+](=O)[O-])ccc2[nH]c2c([N+](=O)[O-])cc([N+](=O)[O-])cc12", "inhibition": "inactive: 0.265%"},
      {"molecule": "CN(C)C(=O)Oc1noc2ccccc12", "inhibition": "inactive: 0.831%"},
      {"molecule": "CC(NC(=O)COC(=O)C(O)(c1ccccc1)c1ccccc1)c1ccccc1", "note": "(stereo not drawn)", "inhibition": "inactive: -2.2%"},
      {"molecule": "Cc1ccccc1OP(=O)(Nc1ccccn1)Oc1ccccc1C", "inhibition": "inactive: -0.0775%"},
      {"molecule": "CCOc1ccc(C2=NCC(CBr)S2)cc1", "note": "(stereo not drawn)", "inhibition": "inactive: -1.54%"},
      {"molecule": "O=P1(Nc2nc3ccc(Cl)cc3s2)COc2ccccc2O1", "note": "(stereo not drawn)", "inhibition": "inactive: 0.141%"},
      {"molecule": "CC(C)(C)C(=O)NC(Sc1ccccc1)C(Cl)(Cl)Cl", "note": "(stereo not drawn)", "inhibition": "inactive: -0.147%"},
      {"molecule": "CCc1cc(O)c([N+](=O)[O-])c(C)c1[N+](=O)[O-]", "inhibition": "inactive: 0.225%"},
      {"molecule": "C[C@H]1OP(=O)(Oc2ccccc2)C[C@@H]2O[C@@H]21", "note": "(stereo partly drawn)", "inhibition": "inactive: -0.811%"},
      {"molecule": "C[C@@H]1C=CCP(=O)(Oc2ccccc2)O1", "note": "(stereo partly drawn)", "inhibition": "inactive: 1.02%"},
      {"molecule": "Cc1ccccc1CN(C)C(=O)COC(=O)C(O)(c1ccccc1)c1ccccc1", "inhibition": "inactive: -1.12%"},
      {"molecule": "COC(=O)C1(C)COP(=O)(NCc2ccccc2)OC1", "note": "(stereo not drawn)", "inhibition": "inactive: -1.11%"},
      {"molecule": "CC(=O)c1ccc(N2CC2c2ccncc2)cc1", "note": "(stereo not drawn)", "inhibition": "inactive: 4.4%"},
      {"molecule": "N#C/C(=C\\c1ccc(N(CCBr)CCBr)cc1)C(N)=O", "inhibition": "inactive: 2.24%"},
      {"molecule": "CC(=O)Nc1ccc(Oc2c([N+](=O)[O-])cc([N+](=O)[O-])cc2[N+](=O)[O-])cc1", "inhibition": "inactive: -0.159%"}
    ]}
  ]
}
